The assay concerns the target PBPb-I^E56A/R109A/E122A/PBPb-II (Vibrio cholerae, UniProt Q9KT38, E122A/E56A/R109A). Put plainly: ITC, amino acids vs tandem PBPb domains with triple-mutated PBPb-I (probes PBPb-II). The settings on record: ITC (iTC200), 20 mM Tris pH 8.0, 150 mM NaCl, 25 °C; protein purified without refolding. A general note: ITC needs no label: the signal is the heat of the interaction.

The chains behind the UniProt entries cited, without tags or fusion partners. Residues count along the entry.
UniProt Q9KT38, 46-491 E122A/E56A/R109A limits assumed: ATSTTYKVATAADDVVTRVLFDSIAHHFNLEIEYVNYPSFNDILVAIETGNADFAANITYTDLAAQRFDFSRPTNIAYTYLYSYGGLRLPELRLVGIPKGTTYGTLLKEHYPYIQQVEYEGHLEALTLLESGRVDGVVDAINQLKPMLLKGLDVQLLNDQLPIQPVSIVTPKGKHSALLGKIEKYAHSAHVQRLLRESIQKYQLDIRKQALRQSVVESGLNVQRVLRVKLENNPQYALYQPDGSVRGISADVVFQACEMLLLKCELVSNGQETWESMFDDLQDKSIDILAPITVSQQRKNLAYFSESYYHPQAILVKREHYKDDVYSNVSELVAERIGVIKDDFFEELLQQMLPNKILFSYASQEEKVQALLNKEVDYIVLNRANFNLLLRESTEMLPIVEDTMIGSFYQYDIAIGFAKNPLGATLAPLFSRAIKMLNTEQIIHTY

For `N[C@@H](CC(=O)O)C(=O)O` [L-aspartate], the Kd result was “no measurable binding affinity”.

Values taken from publication PMC5431781, “Structural studies of the periplasmic portion of the diguanylate cyclase CdgH from Vibrio cholerae” (Scientific Reports, 2017).
